# Library screen at single concentrations

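Growth of Mycobacterium tuberculosis over 3 days (7H9 medium with glucose and tyloxapol); the read-out is not stated. Compounds at 50 µM. Higher reads as more growth inhibition (inferred: compounds with an IC50 in retests scored well above the rest). Of about 69,000 compounds tested this way, about 760 (1.1%) reached 50% or more in at least one test.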

Each number is a percent effect as filed.
How 0% and 100% were set is not recorded. Most values in the screen are low, and negative values occur.
The entries come from a sample that favours strong results.
Two or more numbers in one place are separate tests of the same structure; such repeats can differ widely.

| # | Compound | effect |
|---|---|---|
| 1 | `COCCN(Cc1ccc(OC)nc1)Cc1cccs1` | -7.713% and -1.307% |
| 2 | `Cc1ccc(CN(CCCn2ccnc2)Cc2c(F)cccc2F)s1.O=C(O)CC(O)(CC(=O)O)C(=O)O` | 43.56% |
| 3 | `CC(C)CCC(C)NC(=O)Nc1ccccn1` (configuration not stated) | 59.94% |
| 4 | `OCC1(O)CCN(Cc2ccc(-c3cc[nH]n3)s2)CC1` | 13.13% and 1.735% |
| 5 | `CCOc1ccc2nc(CN3CCOC(CN)C3)ccc2c1` (configuration not stated) | 45.03% |
| 6 | `Cc1nsc(C(=O)NCCc2ccc(S(N)(=O)=O)cc2)n1` | 21.69% |
| 7 | `CCCNC(=O)Cn1cc(-c2ccccc2)cn1` | -5.026% |
| 8 | `CCN1CCOC(CNCc2ccccc2OCc2ccncc2)C1` (configuration not stated) | -16.19% |
| 9 | `CCOCC(=O)N1CCC(CSCc2ccco2)CC1` | 35.93% |
| 10 | `CCC(=O)NCC(Cc1cccc(F)c1)n1cccc1` (configuration not stated) | 30.68% and 7.27% |
| 11 | `C=C/C=c1\c(=C/C)oc2c(NCc3ccccc3)nc(C)nc12` | 74.26% |
| 12 | `Cc1ccc(CC(=O)NCC(O)c2cccc(C(F)(F)F)c2)cn1` (configuration not stated) | -2.239% |
| 13 | `Cc1cccc(C2(O)CCN(Cc3ccccc3N3CCCC3)CC2)c1` | 86.81% |
| 14 | `Cn1nc(CN2CCCCC(N)C2)c2c(Cl)cccc21` (configuration not stated) | 29.26% |
| 15 | `CN1C(=O)C(c2ccccc2)CC12CCN(CCOCCO)CC2` (configuration not stated) | -24.54% |
| 16 | `CNC(=O)NCCc1csc2ccccc12` | 60.66% |
| 17 | `O=C(c1cccnc1)N(CCO)Cc1cc(Br)ccc1F` | 2.657% and 105.7% |
| 18 | `CC(C)CN1Cc2nc(N3CCCC3)ncc2C1=O` | 71.42% |
| 19 | `COc1cccc(-c2cc(C(=O)NCCCn3cnnc3)[nH]n2)c1` | 3.585% |
| 20 | `CCCn1nc(C(=O)N(C)Cc2cnn(C)c2)ccc1=O` | 23.35% |
| 21 | `OCC1(CC2CCCCO2)CCN(c2cnc3ccccc3n2)CC1` (configuration not stated) | 64.81% and 60.08% |
| 22 | `Cc1ccsc1[C@@H]1CCN(C(=O)CCC(=O)c2ccccc2)C[C@H]1O` | -23.2% and 1.884% |
| 23 | `COc1c(C)cc(C(C(=O)O)N(C)Cc2ccn[nH]2)cc1C` (configuration not stated) | -12.24% |
| 24 | `CN(Cc1ccc(-n2cccn2)cc1)C(=O)CCC(F)(F)F` | 19.92% |
| 25 | `COc1ccc(N2CCOCC3(CCCN(c4cnccn4)C3)C2)cc1` (configuration not stated) | 6.616% |
| 26 | `CCN(CC)CCNc1nc(C(C)C)nc2c(C)nn(CC)c12` | 25.29% |
| 27 | `[H][C@]12CC[C@]([H])(CN(Cc3ccccn3)C1)N(C(=O)c1cc(C(C)C)on1)C2` | 16.9% |
| 28 | `Cl.Cl.Clc1cccc(C[C@@H]2NCCC[C@@H]2Nc2cccc(Cl)c2)c1` | 118.1% |
| 29 | `O=C(NCc1ccco1)c1cccc(C(=O)NCc2ccco2)n1` | 13.71% |
| 30 | `CNCc1cc(F)ccc1Oc1ccc(Cl)cc1` | 1.521% |
| 31 | `CCN(Cc1ccncc1)c1cc(C2CCNCC2)nc(C)n1` | 0.3071% |
| 32 | `CCn1nc(C)c2c1cnn2CCNS(=O)(=O)CC` | -1.736% |
| 33 | `CN(C)c1ncc2c(n1)C1(CCN(Cc3ccccc3F)C1)COC2.O=C(O)C(F)(F)F` (configuration not stated) | 32.91% and 2.397% |
| 34 | `CNc1cc2c(nn1)CCN(C(=O)c1cccc3c1OCO3)C2` | 16.8% |
| 35 | `CO[C@@H]1CCN(Cc2nccs2)C[C@@H]1Cc1ccccc1.O=C(O)C(F)(F)F` | 28.81% |
| 36 | `CC(C)Cc1cc(NC(=O)c2ccc(=O)[nH]n2)n(C)n1` | 6.383% |
| 37 | `Cc1ccc2c(c1)OC(C)CN2C(=O)c1c[nH]c(C)cc1=O` (configuration not stated) | 17.83% |
| 38 | `Cc1cc(C)cc(C(=O)NCCCNc2ncccn2)c1` | -2.899% |
| 39 | `CN1CCC(N(C)CCC(=O)N2CCC(OCc3ccccc3)CC2)C1` (configuration not stated) | -14.06% |
| 40 | `COc1ccc(C)cc1CCNS(C)(=O)=O` | 17.67% |
| 41 | `O=C(CCc1ccncc1)N1CCc2cc(Cl)cc(Cl)c2C1` | 51.04% |
| 42 | `CC(=O)c1c(C)nn(CC(=O)Nc2ccc(Br)cc2)c1C` | 59.63% and 65.27% |
| 43 | `O=C(CCC1CCCO1)NCc1ccnc(-n2cccn2)c1` (configuration not stated) | -33.54% |
| 44 | `CCNC(=O)N(C)C(c1ccccc1)c1ccccn1` (configuration not stated) | 8.477% |
| 45 | `Cc1nc(CN2CCCC(N(C)Cc3cscn3)C2)no1` (configuration not stated) | 58.23% |
| 46 | `O=C(CCc1cccc(F)c1F)N1CCN(Cc2ccco2)CC1` | 51.96% |

Repeated from the top, 6 entries:

COCCN(Cc1ccc(OC)nc1)Cc1cccs1 read -7.713% and -1.307%.
Cc1ccc(CN(CCCn2ccnc2)Cc2c(F)cccc2F)s1.O=C(O)CC(O)(CC(=O)O)C(=O)O read 43.56%.
CC(C)CCC(C)NC(=O)Nc1ccccn1 (configuration not stated) read 59.94%.
OCC1(O)CCN(Cc2ccc(-c3cc[nH]n3)s2)CC1 read 13.13% and 1.735%.
CCOc1ccc2nc(CN3CCOC(CN)C3)ccc2c1 (configuration not stated) read 45.03%.
Cc1nsc(C(=O)NCCc2ccc(S(N)(=O)=O)cc2)n1 read 21.69%.

From ChEMBL document CHEMBL3988442, “University of Dundee, Small-Polar-MMV Screening Library” (2021).